Experimental data: PubChem BioAssay AID504761 (Drosophila RNAi Screening Center, 2011)

Aim: 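Insect host genes that dengue virus relies on to spread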 (primary screen)
Cell system: D.Mel-2 cells from Drosophila
Reagents: long dsRNA against Drosophila genes
Conditions: infection with dengue virus type 2; dose and infection time not stated
Detection: 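Cells stained for dengue envelope protein and imaged; percent of infected cells per well on duplicate plates, ranked by infection, with stained nuclei counted for cell number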
Reading the numbers: infection score: higher = more virus-infected cells; cell count: higher = more cells in the well
Hit rule: 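Low infection ranks in the two replicates (chance level up to 0.065) followed by a retest with a 1.5-fold or larger significant decrease, p below 0.05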
Meaning of the calls: active = confirmed: knock-down lowers infection; inactive = not picked or not confirmed
The screen tested about 22,000 reagents; shown is an unselected part of those that have a named target and a result. In the full data, 116 (0.52%) were called active. 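Calls depend on retest data that are not deposited; infection was ranked per plate without normalising between plates; the unit of the infection score is not given.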 Raw values vary from plate to plate and are shown uncorrected. Entries without a mark were called inactive. Reagents against one gene are numbered here. Not stated in the record: the amount of reagent, the time to read-out.

With MED17, what was measured?
infection score, replicate 1: 28.9; infection score, replicate 2: 12.1; cell count, replicate 1: 5648; cell count, replicate 2: 6596

For Glut1 #1, what does the deposit list?
infection score, replicate 1: 2.74; infection score, replicate 2: 1.35; cell count, replicate 1: 6315; cell count, replicate 2: 5869

For Glut1 #2, what was measured?
infection score, replicate 1: 19.6; infection score, replicate 2: 14; cell count, replicate 1: 6097; cell count, replicate 2: 4613

With CG34046 (retired record) #1, what does the deposit list?
infection score, replicate 1: 4.1; infection score, replicate 2: 4.16; cell count, replicate 1: 6704; cell count, replicate 2: 5836

With CG34046 (retired record) #2, what does the deposit list?
infection score, replicate 1: 18.6; infection score, replicate 2: 8.62; cell count, replicate 1: 5847; cell count, replicate 2: 6403

With CG14326 #1, what was measured?
infection score, replicate 1: 1.43; infection score, replicate 2: 4.78; cell count, replicate 1: 6977; cell count, replicate 2: 4412

What is on record for CG14326 #2?
infection score, replicate 1: 3.89; infection score, replicate 2: 28; cell count, replicate 1: 6404; cell count, replicate 2: 4794

How did the screen score Caf1-105?
infection score, replicate 1: 10.3; infection score, replicate 2: 1.96; cell count, replicate 1: 5822; cell count, replicate 2: 6536

How did the screen score qjt #1?
infection score, replicate 1: 1.26; infection score, replicate 2: 2.07; cell count, replicate 1: 6012; cell count, replicate 2: 5892

What is on record for qjt #2?
infection score, replicate 1: 8.16; infection score, replicate 2: 3.34; cell count, replicate 1: 5162; cell count, replicate 2: 5391

How did the screen score CG14810 #1?
infection score, replicate 1: 0.92; infection score, replicate 2: 0.53; cell count, replicate 1: 6618; cell count, replicate 2: 6621

How did the screen score CG14810 #2?
infection score, replicate 1: 14.7; infection score, replicate 2: 0.22; cell count, replicate 1: 1939; cell count, replicate 2: 460

What did the screen give for CG14810 #3?
infection score, replicate 1: 4.9; infection score, replicate 2: 4.71; cell count, replicate 1: 6119; cell count, replicate 2: 6094

Which result is listed for RhoGAP15B #1?
infection score, replicate 1: 5.77; infection score, replicate 2: 5.23; cell count, replicate 1: 6590; cell count, replicate 2: 5644

What did the screen give for RhoGAP15B #2?
infection score, replicate 1: 0.87; infection score, replicate 2: 3.17; cell count, replicate 1: 7006; cell count, replicate 2: 5766

What is on record for Obp99d?
cell count, replicate 1: 310; cell count, replicate 2: 301

For CG14566 #1, how do the results read?
infection score, replicate 1: 4.09; infection score, replicate 2: 8.38; cell count, replicate 1: 6527; cell count, replicate 2: 6576

What did the screen give for CG14566 #2?
infection score, replicate 1: 11.2; infection score, replicate 2: 24.9; cell count, replicate 1: 5513; cell count, replicate 2: 5122

For mRpS10, how do the results read?
infection score, replicate 1: 2.94; infection score, replicate 2: 19; cell count, replicate 1: 5573; cell count, replicate 2: 4724

With CG4041 #1, what was measured?
infection score, replicate 1: 5.33; infection score, replicate 2: 11.3; cell count, replicate 1: 5459; cell count, replicate 2: 5432

For CG4041 #2, what does the deposit list?
infection score, replicate 1: 10.3; infection score, replicate 2: 13.5; cell count, replicate 1: 6297; cell count, replicate 2: 5885
